Results from patent US20230364121A1 (priority 2020, published 2023).

Tested on: human coronavirus alpha-229E
Type: cell-based, HCoV-229E

In the case of CNc1nc(N)nc2c1ncn2[C@@H]1O[C@H](CO[P@@](=O)(N[C@@H](C)C(=O)OC(C)C)Oc2ccccc2)[C@@H](O)[C@@]1(C)F [Compound 1A], the “Neutral Red SI” value (CC50/EC50) is reported as >50, the “Visual SI” value (CC50/EC50) is reported as >50 and the “VYR SI” value (CC50/EC90) is reported as >70.
